Compound potency records, mixed from different reports. Data source: NIAID ChemDB in PubChem.

All rows: whole-cell or culture tests; species: Herpes simplex virus 2; cell line: E6SM; endpoint: EC50

ECn: concentration that inhibits the pathogen or its effect by n%.

SMILES | strain or isolate | method | value
CO[C@H](CO)[C@@H](O)CCn1cnc2c(=O)[nH]c(N)nc21 | 196 | cytopathic effect | >400 µg/mL
CC(=O)OCCOCN1C=C(C#N)C(N)=NS1(=O)=O | G |  | >400 µg/mL
OC[C@H]1O[C@@H](c2cc(C#CBr)c(F)cc2F)C[C@@H]1O | LYONS | cytopathic effect | >400 µg/mL
OC[C@H]1O[C@H](c2ccc(F)cc2F)C[C@@H]1O | 196 | cytopathic effect | >400 µg/mL
O=C1C=CN(COCCO)S(=O)(=O)N1COCCO | G |  | >400 µg/mL
OC[C@H]1O[C@@H](c2ccc(F)cc2F)C[C@@H]1O | G | cytopathic effect | >400 µg/mL
Nc1ccn(CC[C@H](O)CCO)c(=O)n1 | G | cytopathic effect | >400 µg/mL
CC(=O)OCCOCN1C(N)=CC(N)=NS1(=O)=O | G |  | >400 µg/mL
OC[C@H]1O[C@@H](c2cc(/C=C/Br)c(F)cc2F)C[C@@H]1O | LYONS | cytopathic effect | >400 µg/mL
OC[C@H]1O[C@@H](c2cc(C(F)(F)F)c(F)cc2F)C[C@@H]1O | 196 | cytopathic effect | >400 µg/mL
CO[C@H](CO)[C@@H](O)CCn1cc(C)c(=O)[nH]c1=O | G | cytopathic effect | >400 µg/mL
OC[C@H]1O[C@@H](c2cc(I)c(F)cc2F)C[C@@H]1O | 196 | cytopathic effect | >400 µg/mL
CO[C@H](CO)[C@@H](O)CCn1ccc(N)nc1=O | 196 | cytopathic effect | >400 µg/mL
CCc1cc([C@H]2C[C@H](O)[C@@H](CO)O2)c(F)cc1F | 196 | cytopathic effect | >400 µg/mL
Cc1cc([C@H]2C[C@H](O)[C@@H](CO)O2)c(Cl)cc1F | LYONS | cytopathic effect | >400 µg/mL
CC(=O)OCCOCN1C(=O)C=CN(COCCO)S1(=O)=O | LYONS |  | >400 µg/mL

Repeating the final 2 entries:

SMILES	strain or isolate	method	value
Cc1cc([C@H]2C[C@H](O)[C@@H](CO)O2)c(Cl)cc1F	LYONS	cytopathic effect	>400 µg/mL
CC(=O)OCCOCN1C(=O)C=CN(COCCO)S1(=O)=O	LYONS		>400 µg/mL

Lines come from different laboratories, so protocols vary. An empty or dashed field is not shown.